Source: PubChem BioAssay AID504621 (Broad Institute, 2011)
Only a part is listed here, and it is no random draw. Activity calls are given as the source filed them.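 Rule for the calls: active = every replicate shows inhibition above about 80%, whatever the replicate mean (limit read from the data); inconclusive = mean inhibition reaches the set limit but some replicate falls short; inactive = the rest.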

Test: growth inhibition of PfHsp90-expressing yeast, primary screen, antimalarial PfHsp90 inhibitor project, S. cerevisiae, BacTiter-Glo luminescence, single point, set 2 (AID 504621);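 note: yeast relying on Plasmodium falciparum Hsp90 in place of its own; 0% = DMSO neutral controls and 100% = 20 µM radicicol positive controls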
Conditions: BacTiter-Glo ATP, 48 h, at 9.4 µM, active compounds read high, yeast lacking PDR1 and PDR3 efflux regulators

Structure (SMILES) | inhibition
COc1ccccc1CNC(=O)COC(=O)C(O)(c1ccccc1)c1ccccc1 | inactive: 7.61%
CN(C)C1(CNC(=O)c2ccc(S(C)(=O)=O)cc2)CCCCC1 | inactive: 7.82%
CCCC1OP(=O)(Nc2ccccc2)OCC1CC (stereo not drawn) | inactive: 16.7%
O=C(/C=C/c1ccccc1)OC1CN2CCC1CC2 (stereo not drawn) | inactive: 7.57%
CC1CCC(C(C)C)C(OP(=O)(Nc2ccccn2)c2ccccc2)C1 (stereo not drawn) | inactive: 5.77%
Cc1ccc(C(=O)OC2CN3CCC2CC3)cc1 (stereo not drawn) | inactive: 5.47%
Cc1nn(-c2ccccc2)c2c1P(=O)(N1CCOCC1)N(C)C(c1ccccc1)=N2 (stereo not drawn) | inactive: 10.6%
Nc1cccc([As](=O)(O)c2ccccc2)c1 | inactive: -64.9%
O=[As](O)(c1cccs1)c1cccs1 | inactive: 1.22%
Cc1ccc(OCC(=O)OC2CN3CCC2CC3)cc1 (stereo not drawn) | inactive: -3.23%
O=P1(Nc2ccc(Br)cn2)COc2ccccc2OC1 | inactive: 31.5%
NS(=O)(=O)c1cccc(NC(=O)COC(=O)C(O)(c2ccccc2)c2ccccc2)c1 | inactive: -4.96%
C[C@H]1OP(=O)(Oc2ccccc2)[C@H](O)[C@H](O)[C@H]1N=[N+]=[N-] (stereo partly drawn) | inactive: 8.13%
O=P(Nc1nc2ccccc2s1)(c1ccccc1)c1ccccc1 | inactive: 25.9%
O=P(Nc1ccccn1)(c1ccc(Br)cc1)c1ccc(Br)cc1 | inactive: -8.11%
CN(C)C1(CNC(=O)c2ccc(Cl)c(S(N)(=O)=O)c2)CCCCC1 | inactive: 2.08%
COc1ccc(N)c([N+](=O)[O-])c1[N+](=O)[O-] | inactive: -2.91%
C(Cc1nn[nH]n1)Cc1nn[nH]n1 | inactive: 17.8%
Nc1ccc([As](=O)(O)c2ccc([N+](=O)[O-])cc2)cc1 | inactive: 17.8%
O=[As](O)(c1ccccc1)c1ccc(O)cc1 | inactive: 7.83%
O=[N+]([O-])c1ccc(O)c(/C=N/Nc2ccc([N+](=O)[O-])cc2[N+](=O)[O-])c1 | inactive: -15.8%
O=[N+]([O-])c1ncn(CCn2cnc([N+](=O)[O-])n2)n1 | inactive: 2.08%
CC(=O)NC(SC(=S)N(C)C)C(Cl)(Cl)Cl (stereo not drawn) | inactive: -33.6%
c1nnnn1CCn1cnnn1 | inactive: -0.142%
CC(C)C(=O)NC(Sc1ccccc1)C(Cl)(Cl)Cl (stereo not drawn) | inactive: 8.13%
O=P(Nc1nccs1)(c1ccccc1)c1ccccc1 | inactive: 7.67%
CC(C)(C)C(=O)NC(Sc1ccccc1)C(Cl)(Cl)Cl (stereo not drawn) | inactive: -16.5%
CCOc1ccc(C2=NCC(CBr)S2)cc1 (stereo not drawn) | inactive: 18.3%
